Reference: patent US20250082761A1, “DUAL-TARGETED RNA POLYMERASE INHIBITORS: CONJUGATES OF BENZOXAZINO- AND SPIRO-RIFAMYCINS WITH N ALPHA-AROYL-N-ARYL-[…]” (priority 2021, published 2025)

Key:
Assay type in all cases: cell-based, Mycobacterium tuberculosis
[1] = tested on: rifampin-resistant M. tuberculosis 10571 (rpoB-D′516′V); experiment: Microplate Alamar Blue MIC assay, isolate 10571; conditions: isolate 10571, rpoB-D′516′V
[2] = tested on: rifampin-resistant M. tuberculosis 20626 (rpoB-H′526′D); experiment: Microplate Alamar Blue MIC assay, isolate 20626; conditions: isolate 20626, rpoB-H′526′D
[3] = tested on: rifampin-resistant M. tuberculosis 4457 (rpoB-H′526′Y); experiment: Microplate Alamar Blue MIC assay, isolate 4457; conditions: isolate 4457, rpoB-H′526′Y
[4] = tested on: rifampin-resistant M. tuberculosis 10545 (rpoB-S′531′L); experiment: Microplate Alamar Blue MIC assay, isolate 10545; conditions: isolate 10545, rpoB-S′531′L

## COC1C=COC2(C)Oc3c(C)c(O)c4c(c3C2=O)C2=NC3(CCN(c5ccc(F)cc5NC(=O)C(Cc5ccccc5)NC(=O)c5ccccc5F)CC3)NC2=C(NC(=O)C(C)=CC=CC(C)C(O)C(C)C(O)C(C)C(O)C1C)C4=O (stereo not shown)
[1]
  antibacterial activity rifampin-resistant M. tuberculosis 10571 (rpoB-D′516′V) MIC: 0.040 µg/mL
[2]
  antibacterial activity rifampin-resistant M. tuberculosis 20626 (rpoB-H′526′D) MIC: 0.20 µg/mL
[3]
  antibacterial activity rifampin-resistant M. tuberculosis 4457 (rpoB-H′526′Y) MIC: 0.20 µg/mL
[4]
  antibacterial activity rifampin-resistant M. tuberculosis 10545 (rpoB-S′531′L) MIC: 0.20 µg/mL
